Test results from paper PMC12232896 (Angewandte Chemie (International Ed. in English), 2025).

System: PfDd2 resistant clones D6 and F3 (PfPI4Kβ S1320L)
Assay: microbe, parasite or virus in culture
Conditions: Plasmodium falciparum

CN(C)CCCOc1ccc(-c2ccc3ncc4c(c3c2)n(C2CCOCC2)c(=O)n4C)cn1 [AZD0156]
IC50 (D6, read-out: IC50 clone D6): 389 ± 13 nM
IC50 (D6, read-out: IC50 clone F3): 337 ± 5 nM

Like-named read-outs stand apart in the source and are kept apart here.
